Measurements taken from the supplement of paper PMC9262897, “Low-cost anti-mycobacterial drug discovery using engineered E. coli” (Nature Communications, 2022).
± gives the standard deviation of the averaged measurements. Only a part is listed here, and it is no random draw.

Test system: E. coli TESEC Mtb DapB
Experiment: growth (OD600 after 10 h); higher = more growth (less inhibition)
Conditions: arabinose induction (level): High; compound 0.1 mM; raw OD600 reference: median of DMSO wells […], cell-free background 0.041
Experimental: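 TESEC E. coli strains in which the native enzyme is deleted and replaced by arabinose-inducible Mtb Asd, DapB, CysH or TrpD, each grown in its selective medium. Strains were screened against the Prestwick library at 0.1 mM and 1% DMSO in 384-well format at low and high arabinose induction. Growth is read as OD600 after 10 h in triplicate.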

**Q.** Which growth does the source give for `COc1cc(Br)c(C[N+]2(CCOCCC3CCC4CC3C4(C)C)CCOCC2)cc1OC` (configuration not stated) [Pinaverium bromide] here?
**A.** 0.04833 ± 0.00029

Same assay, conditions: arabinose induction (level): Low; compound 0.1 mM; raw OD600 reference: median of DMSO wells 0.227, cell-free background 0.041

**Q.** How did the growth turn out when `COc1cc(Br)c(C[N+]2(CCOCCC3CCC4CC3C4(C)C)CCOCC2)cc1OC` (configuration not stated) [Pinaverium bromide] was run?
**A.** 0.0505 ± 0.0021
